# Test results reported in patent US9404916B2, “Use of a protein kinase inhibitor to detect immune cells, such as T cells” (University College Cardiff Consultants Limited, priority 2008, dated 2016).
# “And” between values parts separate entries of the source, which are not always exact repeats. Identical values can stand only once.
# Molecular target: F5 TCR (on splenocytes of F5 TCR transgenic mice)
substance,measurement,value
H2-Db/… (SEQ ID NO:7)-PE tetramer (from UniProt P01899 25-309) (peptide-MHC),MFI,156 and 234
